Common to all, as to experiment: pseudovirus neutralization IC50; higher = weaker neutralization
The target of experiment [1] is SARS-CoV-2 Omicron BA.1 spike pseudovirus. On the procedure:
(§1)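 Single-round VSV luciferase pseudovirus mixed with antibody dilutions for 1 h and put on Huh-7 cells for about a day; IC50 from the dose curve.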

The target of experiment [2] is SARS-CoV-2 Omicron BA.2 spike pseudovirus. Here is the method: as §1
The target in experiment [3] is SARS-CoV-2 Omicron BA.2.75 spike pseudovirus. On the procedure: as §1
The target of experiment [4] is SARS-CoV-2 Omicron BA.2.75.2 spike pseudovirus. Here is the method: as §1
The target of experiment [5] is SARS-CoV-2 Omicron BA.5 spike pseudovirus. Here is the method:
as §1

Experiment [6] has as its target SARS-CoV-2 Omicron BM.1.1.1 spike pseudovirus. On the procedure:
as §1

Experiment [7] deals with SARS-CoV-2 Omicron BQ.1.1 spike pseudovirus. Here is the method:
as §1

Experiment [8] has as its target SARS-CoV-2 Omicron BR.2 spike pseudovirus. On the procedure:
as §1

For experiment [9], the target named is SARS-CoV-2 Omicron CA.1 spike pseudovirus. On the procedure: as §1
Experiment [10] concerns the target SARS-CoV-2 Omicron XBB spike pseudovirus. Here is the method: as §1
Experiment [11] addresses SARS-CoV-2 early D614G spike pseudovirus. On the procedure:
as §1

Human monoclonal antibodies against the spike receptor-binding domain (heavy:light variable regions). IC50 against pseudoviruses bearing the spike of naturally observed variants; lower = stronger; >10 µg/ml means not reached at the top dose. No active / inactive call. The stated detection limit is 0.0005 µg/ml; values near or below 0.001 µg/ml lie at the floor of the assay.

B1: BD56-1200 (protein)
chain 1: QVQLQESGPGLVKPSETLSLTCTVSGGSISSYYWSWIRQPAGKGLEWIGRIYTSGSTNYNPSLKSRVTMSVDTSKNQFSLILSSVTAADAAVYYCAREPPVWYDNSDYYPHVFDPWGQGTLVTVSS
chain 2: QSALTQPRSVSGSPGQSVTISCTGTSSDVGGYNYVSWYQQHPGKAPKLMIYDVSKRPSGVPDRFSGSKSGNTASLTISGLQAEDEADYYCCSYAGSYTFRVVFGGGTKLTVL
With B1, the “pseudovirus neutralization IC50” value in [1] was 0.0189 µg/mL; in [2], 0.0184 µg/mL; in experiment [3], above 10 µg/mL; in [4] it was above 10 µg/mL; in [5] it was above 10 µg/mL; in [6] it was above 10 µg/mL. For the same molecule, the “pseudovirus neutralization IC50” value in [7], in experiment [8], in experiment [9], in experiment [10] and in [11] was above 10 µg/mL throughout.

B2: BD56-1207 (protein)
chain 1: EVQLVESGGGLVQPGGSLRLSCAASEFSFTSYWMSWVRQAPGKGLEWVANINEDGSEKYYVDSVKGRFTISRDNAKNSLYLQMNSLRAEDTAVYYCARVSYQLLSSRYPAFHYYYFYYMDVWGKGTTVTVSS
chain 2: SSELTQDPAVSVALGQTVRITCQGDSLRSYYASWYQQKPGQAPLLVIYGENNRPSGIPDRFSGSSSGGTASLTITGAQAEDEADYYCNSRDTSGDSVLFGGGTKLTVL
As to B2, the “pseudovirus neutralization IC50” value in experiment [1] is 0.00244 µg/mL; in experiment [2], 0.00182 µg/mL; in experiment [3] it was 0.00125 µg/mL; in [4] it was above 10 µg/mL; in experiment [5], above 10 µg/mL; in [6] it was above 10 µg/mL. Besides, the “pseudovirus neutralization IC50” value in experiment [7], in [8], in experiment [9], in experiment [10] and in [11] was above 10 µg/mL each time.

B3: BD58-0552 (protein)
chain 1: QITLKESGPTLVKPTETLTLTCTFPGVSLSTSGVGVGWIRQPPGKALEWLALIYWDDDKVYSPSLKSRLTITKETSKNQVVLRMTNMEPVDTATYYCGYFPDSYLALDFDYWGQGTLVTVSS
chain 2: QSVLTQPPSVSEAPRQRVTISCSGSSSNIGNNAVNWYQQLPGKAPKLLIYYDDLLPSGVSDRFSGSKSGTSASLAISGLQSEDETDYYCAAWDDSLNAWVFGGGTKLTVL
As to B3, the “pseudovirus neutralization IC50” value in experiment [1] came out at 0.0014 µg/mL; in [2], 0.00032 µg/mL; in experiment [3], 0.000407 µg/mL; in experiment [4] it was 0.00233 µg/mL; in experiment [5], 0.00216 µg/mL; in [6], 0.00391 µg/mL. Besides, the “pseudovirus neutralization IC50” value is above 10 µg/mL in experiment [7]; 0.00471 µg/mL in experiment [8]; 0.00172 µg/mL in experiment [9]; 0.00281 µg/mL in experiment [10]; above 10 µg/mL in experiment [11].

B4: BD56-1362 (protein)
chain 1: EVQLVESGGGLVQPGGSLRLSCAASGFTFSSYEMNWVRQAPGKGLEWLSYISSSGSTIYYADSVKGRFTISRDNAKNSLYLQLNSLRAEDTAVYYCATDEFWSGLYYMDVWGKGTTVIVSS
chain 2: DIQMTQSPSSVSASVGDRVTITCRASQGISSWLAWYQQKPGKAPKLLISAASSLQSGVPSRFSGSGSGTDFTLTISSLQPEDFATYYCQQANSFPRTFGQGTKLEIK
B4: the “pseudovirus neutralization IC50” value is above 10 µg/mL in [1]; 0.000686 µg/mL in experiment [2]; 1.22 µg/mL in experiment [3]; above 10 µg/mL in [4]; above 10 µg/mL in [5]; above 10 µg/mL in experiment [6]. The “pseudovirus neutralization IC50” value in experiment [7], in experiment [8], in experiment [9], in experiment [10] and in experiment [11] was above 10 µg/mL in each case.

B5: BD58-0554 (protein)
chain 1: QVQLVQSGAEVKKPGASVKVSCKASGYTFTTYFIHWVRQAPGQGLDWMGWIDPYSGDTHFAQKFQGRVTMTRDTSIDTAYMELSSLRSDDTAVYYCARGGLFGVAAAGSFYYMDVWDKGTTVTVSS
chain 2: EIVLTQSPGTLSLSPGERATLSCRASQSVSGNNLAWYQQKVGQAPRLLMYGASSRAPGITDRFSGSGSGTDFTLTISRLEPEDFALYYCQQYGSSPLTFGGGTKVEIK
B5: the “pseudovirus neutralization IC50” value is 0.0237 µg/mL in experiment [1]; 0.0125 µg/mL in experiment [2]; 0.205 µg/mL in experiment [3]; above 10 µg/mL in experiment [4]; above 10 µg/mL in experiment [5]; above 10 µg/mL in experiment [6]. The “pseudovirus neutralization IC50” value in experiment [7], in experiment [8], in experiment [9], in experiment [10] and in experiment [11] was above 10 µg/mL in each case.

(Values after the supplement of paper PMC9931576.)
